From PMC3466309, “Initial Characterization of the Pf-Int Recombinase from the Malaria Parasite Plasmodium falciparum”

Key:
[1] = molecular target: T1, Pf-Int-C192 (Plasmodium falciparum 3D7) (UniProt C0H5A8); assay: EMSA; conditions: EMSA: 50 mM Tris pH 8, 150 mM NaCl, 0.1 mM EDTA, 5 mM DTT, 50 ug/ml BSA, 2% glycerol, 0.5% Tween 20, 10 ug/ml poly(dI-dC) unless omitted, 10 nM DNA, 20 min at 20 C, recombinant protein, residues 192-490
T1 sequence (looked up): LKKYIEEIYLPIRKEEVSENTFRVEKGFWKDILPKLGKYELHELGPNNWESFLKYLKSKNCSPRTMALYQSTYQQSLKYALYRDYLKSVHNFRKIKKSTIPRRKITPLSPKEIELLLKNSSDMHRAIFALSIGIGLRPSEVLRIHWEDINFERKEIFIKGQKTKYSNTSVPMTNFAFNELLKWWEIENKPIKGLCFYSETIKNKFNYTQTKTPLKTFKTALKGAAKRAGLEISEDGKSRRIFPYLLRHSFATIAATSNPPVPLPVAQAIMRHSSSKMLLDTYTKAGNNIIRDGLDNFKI

[2] = molecular target: T1, Pf-Int-C192 (Plasmodium falciparum 3D7); assay: competition with a labelled probe; conditions: 150-fold excess vs Selex8-22, text: interaction not sequence-specific; EMSA: 50 mM Tris pH 8, 150 mM NaCl, 0.1 mM EDTA, 5 mM DTT, 50 ug/ml BSA, 2% glycerol, 0.5% Tween 20, 10 ug/ml poly(dI-dC) unless omitted, 10 nM DNA, 20 min at 20 C; recombinant protein; residues 192-490

| Sequence | binding result [2] | other results |
| --- | --- | --- |
| ACCCAAACACACTGTGCGCGCGTCG (double strand) [Selex8-22] | – | binding result ([1]; 0.3 uM protein, 10 nM probe, label: 5'-DY682 (probe) or unlabeled (competitor)): binds |
| CAAACACACTGTGCGCGCGTCG (double strand) [Selex8] | – | binding result ([1]; no poly(dI-dC), label: 5'-DY682 on strand 1): binds |
| GCTAGTGCAAAAGGTTCAAAACCAAATTTACCAGAATCCAAT (double strand) [Hsp70 DNA] | binds | – |
| GGATCCGGTTATAACGAACGCCTAAGGGGCTGTCAACGCA (double strand) [Modified attC site] | binds | – |
| GTACTTACTCTAATCTAGTCGTAGTATGTATGCCTCAATGAA (double strand) [Random probe] | binds | – |
| TCTGAAGAAGCTGTTGCTTTAGTAGTTGATAATGGAAGTGGT (double strand) [ActinII DNA] | binds | – |

For at least one entry, the source does not settle the construct or the ends of the probe. At least one verdict was read from the data and is not stated in words by the source. Tags and fusion partners may be left off the protein sequences shown.
